{"source": "patent US11707504B1", "about": "(KING FAISAL UNIVERSITY, dated 2023)", "molecular_target": "HCoV-229E spike (S) protein, S2 subunit fusion core (HR1/HR2) (human coronavirus 229E, UniProt P15423)", "experiment": "cell-based or functional assay", "data": [{"binder": "SLTQINTTLLDLEYEMRSLEEVVKKLNESYIDLKEL", "note": "[peptide #11]", "values": [{"measurement": "IC50 (plaque reduction test, Vero E6 cells)", "result": 6.63, "unit": "µg/mL"}]}]}
